Assay results from patent publication US20170267739A1.

Biological target: HIV-1 Env (JR-FL) (HIV-1 JR-FL) (UniProt P20871)
Assay: cell-based or functional assay

Q: For “CD4 CAR (from UniProt P01730 26-208; P10747 114-220; P20963 52-163) (receptor)”, which IFN-γ secretion at the lowest Env expression level (HeLa-Tet-Off, 20 ng/ml Dox) is on record?
A: The IFN-γ secretion at the lowest Env expression level (HeLa-Tet-Off, 20 ng/ml Dox) was 30%.
